Assay results published in patent US20100292214A1, “Compounds with Antiparasitic Activity, Applications thereof to the Treatment of Infectious Diseases Caused by Apicomplexans” (commissariat a l'Energie Atomique, priority 2007, published 2010).

Tests used:
[1] = test system: Toxoplasma gondii RH-β1 strain; conditions: read-out: IC50 assessed on Toxoplama Gondii; RH-β1 strain in HFF monolayers, 48-72 hr, CPRG β-galactosidase readout, triplicates
[2] = test system: asynchronous 3D7 chloroquine-sensitive P. falciparum infected red blood cells; assay: Labeled hypoxanthine incorporation assay (in vitro anti-malarial activity); assay type: cell-based; conditions: read-out: IC50 assessed on Plasmodium Falciparum; 3D7 chloroquine-sensitive strain, infected RBC, 48 h contact, [3H]-hypoxanthine incorporation; two independent experiments in duplicates

Compound C[C@@H](COC(=O)N1CCC(N(C(=O)C(C)(C)C)c2ccccc2)CC1)N(Cc1ccccc1)Cc1ccccc1 has an IC50 [1] of 3.7 µM and an IC50 [2] of 2.96 µM.

Some compounds may have been tested in ways that are not shown here.
